Measured values from several laboratories, pooled; numbers as filed in NIAID ChemDB.

Shared fields: growth or infection tests; organism: Human herpesvirus 6; cells: MOLT-3; endpoint: EC50

Rows are shuffled and stem from different studies.

smiles	strain	method	result
OC[C@H]1CC(n2c(Br)nc3cc(Cl)c(Cl)cc32)[C@H](O)[C@@H]1O	6B	hybridisation	15 µM
NC(=O)c1c(Cl)c(-c2cccnc2)n2c1CCCC2	TYPE B (Z29)	hybridisation	>100 µM
Nc1ccn(C[C@@H](CO)OCP(=O)(O)O)c(=O)n1	TYPE 6A	-	2.9 µg/mL
N#CC1C(c2ccc(Cl)cc2)Nc2sccc2S1(=O)=O	Z29 (TYPE 6B)	cytopathic effect	2.1 µg/mL
Nc1nc2c(ncn2C[C@]2(CO)C[C@H]2CO)c(=O)[nH]1	Z-29 (subtype 6B)	cytopathic effect	3.39 µg/mL
Nc1nc2c(ncn2COC(CO)CO)c(=O)[nH]1	Z29 (TYPE 6B)	hybridisation	68.6 µM
C[C@H]1O[C@@H](n2c(NC3CC3)nc3cc(Cl)c(Cl)cc32)[C@H](O)[C@@H]1O	6B	hybridisation	>100 µM
Nc1nc2c(ncn2CCC(CO)CO)c(=O)[nH]1	Z-29 (subtype 6B)	-	>100 µg/mL
OCC1OC(n2c(Br)nc3cc(Cl)c(Cl)cc32)C(O)C1O	6B	hybridisation	45 µM
Nc1nc2c(ncn2[C@@H]2C[C@H](CO)[C@H]2CO)c(=O)[nH]1	Z-29 (subtype 6B)	-	4.85 µg/mL
N#CC1=C(c2ccccc2)Nc2sccc2S1(=O)=O	Z29 (TYPE 6B)	cytopathic effect	>20 µg/mL
O[C@@H]1[C@H](O)CO[C@H]1n1c(Br)nc2cc(Cl)c(Cl)cc21	6B	hybridisation	72 µM
Nc1nc2c(ncn2COC(CO)CO)c(=O)[nH]1	Z-29 (subtype 6B)	cytopathic effect	16 µg/mL
OC[C@@H]1O[C@@H](n2c(Br)nc3cc(Cl)c(Cl)cc32)[C@H](O)[C@H]1O	6B	hybridisation	9.7 µM
N#CC1C(c2ccccc2)Nc2ccccc2S1(=O)=O	Z29 (TYPE 6B)	cytopathic effect	>20 µg/mL

The last 2 rows once more:

{"smiles": "OC[C@@H]1O[C@@H](n2c(Br)nc3cc(Cl)c(Cl)cc32)[C@H](O)[C@H]1O", "strain": "6B", "method": "hybridisation", "result": "9.7 µM"}
{"smiles": "N#CC1C(c2ccccc2)Nc2ccccc2S1(=O)=O", "strain": "Z29 (TYPE 6B)", "method": "cytopathic effect", "result": ">20 µg/mL"}

ECn is the concentration giving n% inhibition of infection, replication or growth. Blank or dashed fields: not listed here.